Reference: PubChem BioAssay AID1259414 (Drosophila RNAi Screening Center, 2018)
Assay: 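Genome-wide screen for host control of endosymbiont load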 (primary screen). System: Drosophila JW18 cells infected with Wolbachia. Reagents: long dsRNA against Drosophila genes, 0.25 µg dsRNA per well of a 384-well plate. Time to read-out: 5 days. Conditions: cells persistently infected with Wolbachia before knock-down; no added drug. Measurement: 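Automated imaging of bacterial rRNA staining divided by host cell count, reported as plate-normalised robust z-score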. Scale: Wolbachia per cell robust z: higher = more Wolbachia per host cell than the plate typical. Rule for the call: 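Active if absolute robust z reaches 1.5 in two or more of three replicates, leaving out multi- or no-target dsRNAs, genes unexpressed in JW18 and A1 wells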.
In all, the deposit lists about 24,000 reagents; below is a random part of those with a known target gene and a result. In the full data, about 1,210 (5%) got an active call. 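Inactive calls also include excluded dsRNAs with several or no targets, genes unexpressed in JW18, and well A1, regardless of score.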 A plus sign joins genes that one reagent is predicted to hit.

Gene | amplicon | Wolbachia per cell robust z, rep 1 | Wolbachia per cell robust z, rep 2 | Wolbachia per cell robust z, rep 3 | Outcome
Pect (GeneID 34716) | DRSC02867 | 0.155 | -0.979 | -0.312 | inactive
Pect (GeneID 34716) | DRSC02868 | 2.41 | 0.867 | 1.71 | active
CG30503 + kappaB-Ras | DRSC25537 | -0.745 | 0.18 | -1.05 | inactive
CG8960 (GeneID 38280) | DRSC08612 | -0.253 | -0.301 | 0.382 | inactive
CG8960 (GeneID 38280) | DRSC27132 | -4.04 | 1.14 | 0.732 | inactive
CG15725 (GeneID 32224) | DRSC19691 | -0.324 | -1.32 | -0.0587 | inactive
Myo81F (GeneID 26067052) | DRSC37811 | -5.81 | 0.00245 | 0.0115 | inactive
Myo81F (GeneID 26067052) | DRSC37873 | 1.91 | -0.431 | 1.08 | inactive
Myo81F (GeneID 26067052) | DRSC38578 | 1.05 | 0.18 | 0.603 | inactive
Myo81F (GeneID 26067052) | DRSC38605 | -0.105 | 0.0247 | -0.266 | inactive
Myo81F (GeneID 26067052) | DRSC38734 | -7.28 | -1.12 | -1.87 | inactive
Myo81F (GeneID 26067052) | DRSC38783 | 1.75 | -0.52 | -0.447 | inactive
Myo81F (GeneID 26067052) | DRSC40563 | -1.11 | -0.0396 | 0.587 | inactive
Myo81F (GeneID 26067052) | DRSC41368 | 0.294 | -0.337 | -0.71 | inactive
Myo81F (GeneID 26067052) | DRSC41379 | -0.342 | 0.233 | -0.648 | inactive
ppk29 (GeneID 37844) | DRSC04205 | -0.325 | -0.139 | -0.961 | inactive
Acp95EF + Spase22-23 | DRSC14102 | 0.363 | -2.76 | -0.234 | inactive
BI-1 (GeneID 38936) | DRSC10782 | -0.681 | -0.245 | 0.985 | inactive
CG14502 (GeneID 37092) | DRSC06473 | 1.08 | -1.23 | -0.0762 | inactive
NELF-B (GeneID 31681) | DRSC17734 | 0.573 | -7.1 | 0.683 | inactive
NELF-B (GeneID 31681) | DRSC26242 | 2.27 | 0.65 | 1.71 | active
drk (GeneID 36497) | DRSC07606 | 0.017 | 0.304 | 1.6 | inactive
drk (GeneID 36497) | DRSC27911 | 1.48 | 3.14 | 3.55 | active
Hel89B (GeneID 41943) | DRSC16700 | 0.104 | 0.879 | 0.952 | inactive
Hel89B (GeneID 41943) | DRSC21575 | 0.103 | -1.11 | 0.0789 | inactive
amrt (GeneID 32342) | DRSC19378 | 0.495 | -0.00592 | 0.9 | inactive
amrt (GeneID 32342) | DRSC26943 | 0.889 | 0.165 | 0.508 | inactive
Rhp (GeneID 32531) | DRSC20279 | -0.714 | -0.484 | -0.0544 | inactive
CG31917 + Tfb5 | DRSC02363 | -0.189 | -3.25 | 1.26 | inactive
CG31917 + Tfb5 | DRSC28677 | -1.67 | -0.952 | -0.953 | inactive
ndl (GeneID 38738) | DRSC11374 | -0.56 | -0.0376 | -5.12 | inactive
ndl (GeneID 38738) | DRSC26902 | 0.432 | 0.437 | 0.311 | inactive
Vps24 (GeneID 40542) | DRSC12332 | -0.289 | 0.0508 | -0.275 | inactive
Vps24 (GeneID 40542) | DRSC29224 | 0.455 | -0.341 | -3.75 | inactive
CG12516 (GeneID 43370) | DRSC14524 | 0.0173 | -1 | -0.803 | inactive
CG9150 (GeneID 33856) | DRSC03148 | -3.51 | 0.183 | 0.286 | inactive
CG9150 (GeneID 33856) | DRSC25676 | -0.832 | -1.11 | -2.12 | inactive
Doc3 (GeneID 39036) | DRSC10480 | -0.0958 | -0.776 | 0.409 | inactive
Doc3 (GeneID 39036) | DRSC28205 | 0.865 | 0.413 | -0.00697 | inactive
raw (GeneID 44851) | DRSC03599 | -8.79 | -2.36 | 0.0595 | active
raw (GeneID 44851) | DRSC03600 | 1.29 | 1.04 | -4.15 | inactive
raw (GeneID 44851) | DRSC40814 | 1.01 | -0.00193 | -0.0162 | inactive
CG13862 (GeneID 42610) | DRSC14712 | -0.778 | -0.391 | -0.755 | inactive
RIOK2 (GeneID 43046) | DRSC14413 | 1.13 | -0.00356 | 0.216 | inactive
cmpy (GeneID 40288) | DRSC11701 | -0.912 | 0.484 | -0.562 | inactive
cmpy (GeneID 40288) | DRSC41310 | -0.954 | 0.965 | 0.556 | inactive

Laid out differently: entries from further up
Gene	amplicon	Wolbachia per cell robust z, rep 1	Wolbachia per cell robust z, rep 2	Wolbachia per cell robust z, rep 3	Outcome
Myo81F (GeneID 26067052)	DRSC38734	-7.28	-1.12	-1.87	inactive
Myo81F (GeneID 26067052)	DRSC38783	1.75	-0.52	-0.447	inactive
Myo81F (GeneID 26067052)	DRSC40563	-1.11	-0.0396	0.587	inactive
